Source: PubChem BioAssay AID1259414 (Drosophila RNAi Screening Center, 2018)

Test: 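Genome-wide screen for host control of endosymbiont load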 (primary screen)
Cell system: Drosophila JW18 cells infected with Wolbachia
Reagents: long dsRNA against Drosophila genes, 0.25 µg dsRNA per well of a 384-well plate
Duration: 5 days
Conditions: cells persistently infected with Wolbachia before knock-down; no added drug
Detection: 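Automated imaging of bacterial rRNA staining divided by host cell count, reported as plate-normalised robust z-score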
Direction: Wolbachia per cell robust z: higher = more Wolbachia per host cell than the plate typical
Active means: 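Hit when robust z is 1.5 or more, or -1.5 or less, in at least two of three replicates; excludes dsRNAs with several or no targets, genes not expressed in JW18 and well A1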
The deposit covers about 24,000 reagents; shown is a random part of those with a known target gene and a result. In the full data, about 1,210 (5%) got an active call. 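Inactive calls also include excluded dsRNAs with several or no targets, genes unexpressed in JW18, and well A1, regardless of score.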 The numbers tell different reagents against one gene apart. Names joined by + are all predicted targets of the reagent. Reagent sequences are not shown.

{"Gene": "mRpS21 (GeneID 318249)", "dsRNA no.": 1, "Wolbachia per cell robust z, rep 1": -0.288, "Wolbachia per cell robust z, rep 2": -0.807, "Wolbachia per cell robust z, rep 3": -0.314, "Call": "inactive"}
{"Gene": "mRpS21 (GeneID 318249)", "dsRNA no.": 2, "Wolbachia per cell robust z, rep 1": -0.189, "Wolbachia per cell robust z, rep 2": -1.31, "Wolbachia per cell robust z, rep 3": -1.54, "Call": "inactive"}
{"Gene": "mRpS21 (GeneID 318249)", "dsRNA no.": 3, "Wolbachia per cell robust z, rep 1": 0.284, "Wolbachia per cell robust z, rep 2": -0.439, "Wolbachia per cell robust z, rep 3": 0.916, "Call": "inactive"}
{"Gene": "Ssk (GeneID 40207)", "dsRNA no.": 1, "Wolbachia per cell robust z, rep 1": 0.961, "Wolbachia per cell robust z, rep 2": 0.296, "Wolbachia per cell robust z, rep 3": 0.321, "Call": "inactive"}
{"Gene": "Gr68a (GeneID 39324)", "dsRNA no.": 1, "Wolbachia per cell robust z, rep 1": -0.425, "Wolbachia per cell robust z, rep 2": 0.24, "Wolbachia per cell robust z, rep 3": 1.01, "Call": "inactive"}

Continued; the last 2 above are carried over.
{"Gene": "Ssk (GeneID 40207)", "dsRNA no.": 1, "Wolbachia per cell robust z, rep 1": 0.961, "Wolbachia per cell robust z, rep 2": 0.296, "Wolbachia per cell robust z, rep 3": 0.321, "Call": "inactive"}
{"Gene": "Gr68a (GeneID 39324)", "dsRNA no.": 1, "Wolbachia per cell robust z, rep 1": -0.425, "Wolbachia per cell robust z, rep 2": 0.24, "Wolbachia per cell robust z, rep 3": 1.01, "Call": "inactive"}
{"Gene": "mrva (GeneID 38808)", "dsRNA no.": 1, "Wolbachia per cell robust z, rep 1": -2.93, "Wolbachia per cell robust z, rep 2": 0.0131, "Wolbachia per cell robust z, rep 3": 0.0991, "Call": "inactive"}
{"Gene": "mrva (GeneID 38808)", "dsRNA no.": 2, "Wolbachia per cell robust z, rep 1": -0.425, "Wolbachia per cell robust z, rep 2": -0.477, "Wolbachia per cell robust z, rep 3": -0.245, "Call": "inactive"}
{"Gene": "mrva (GeneID 38808)", "dsRNA no.": 3, "Wolbachia per cell robust z, rep 1": 0.724, "Wolbachia per cell robust z, rep 2": -1.14, "Wolbachia per cell robust z, rep 3": 1.39, "Call": "inactive"}
{"Gene": "CG42380 + CG42381 + CG42379 + 1 more", "dsRNA no.": 1, "Wolbachia per cell robust z, rep 1": -0.0115, "Wolbachia per cell robust z, rep 2": 0.13, "Wolbachia per cell robust z, rep 3": 0.0484, "Call": "inactive"}
{"Gene": "CG15128 (GeneID 37263)", "dsRNA no.": 1, "Wolbachia per cell robust z, rep 1": 0.421, "Wolbachia per cell robust z, rep 2": -0.24, "Wolbachia per cell robust z, rep 3": 0.192, "Call": "inactive"}
{"Gene": "Ip259 (GeneID 34419)", "dsRNA no.": 1, "Wolbachia per cell robust z, rep 1": 0.696, "Wolbachia per cell robust z, rep 2": 0.826, "Wolbachia per cell robust z, rep 3": 1.57, "Call": "inactive"}
{"Gene": "CG11563 (GeneID 43735)", "dsRNA no.": 1, "Wolbachia per cell robust z, rep 1": 0.832, "Wolbachia per cell robust z, rep 2": 0.281, "Wolbachia per cell robust z, rep 3": -1.69, "Call": "inactive"}
{"Gene": "CG6073 (GeneID 43180)", "dsRNA no.": 1, "Wolbachia per cell robust z, rep 1": -0.874, "Wolbachia per cell robust z, rep 2": -0.35, "Wolbachia per cell robust z, rep 3": -1.15, "Call": "inactive"}
{"Gene": "CG6073 (GeneID 43180)", "dsRNA no.": 2, "Wolbachia per cell robust z, rep 1": 0.332, "Wolbachia per cell robust z, rep 2": 0.872, "Wolbachia per cell robust z, rep 3": -0.474, "Call": "inactive"}
{"Gene": "CG6073 (GeneID 43180)", "dsRNA no.": 3, "Wolbachia per cell robust z, rep 1": 0.541, "Wolbachia per cell robust z, rep 2": 1.41, "Wolbachia per cell robust z, rep 3": 1.76, "Call": "inactive"}
{"Gene": "squ (GeneID 2768920)", "dsRNA no.": 1, "Wolbachia per cell robust z, rep 1": 1.81, "Wolbachia per cell robust z, rep 2": 0.243, "Wolbachia per cell robust z, rep 3": 0.575, "Call": "inactive"}
